## Fitness effects across NS2B and the NS3 protease domain of Zika virus

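Pools of virus carrying all single amino acid changes were selected for growth in Huh-7.5 cells. The effect is the change in frequency of a mutant, normalised to wild type, as a mean of three replicate libraries (two for positions 207-308).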

The scanned region of Zika virus MR766 is shown below (positions 1-308): NS2B is 2-131, NS3 begins at position 132.
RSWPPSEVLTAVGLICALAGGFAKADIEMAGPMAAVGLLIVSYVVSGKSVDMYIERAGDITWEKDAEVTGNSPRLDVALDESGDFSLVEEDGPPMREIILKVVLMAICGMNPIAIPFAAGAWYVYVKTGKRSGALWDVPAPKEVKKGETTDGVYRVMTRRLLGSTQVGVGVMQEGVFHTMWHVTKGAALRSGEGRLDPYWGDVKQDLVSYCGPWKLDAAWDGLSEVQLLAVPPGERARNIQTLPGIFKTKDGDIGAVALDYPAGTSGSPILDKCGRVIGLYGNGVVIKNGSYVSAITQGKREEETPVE

Values are log2 effects on growth: 0 is wild type, lower means poorer growth.
Substitutions are written as wild-type residue, site number, new residue.
All changes here are to glutamine.
The region was split into three libraries (1-103, 104-206, 207-308).
Six mutants with high scores were retested singly and none clearly outgrew wild type, so positive values are not proof of better growth.
The authors count -1 or higher as tolerated. Position 1 is the last residue of NS2A.

A263Q read -1.47. For G264Q the result was -5.56. T265Q read -2.96. For S266Q the result was -4.77. With G267Q the assay gave -4.76. S268Q read -4.11. With P269Q the assay gave -5.80.

I270Q gave -3.60. With L271Q the assay gave -3.13. D272Q gave -3.39. K273Q gave -0.82. For C274Q the result was 0.29. G275Q gave -3.54. R276Q gave -3.58.

V277Q read -4.85. For I278Q the result was -4.89. For G279Q the result was -4.84. L280Q gave -5.55. Y281Q read -5.36. With G282Q the assay gave -3.39. N283Q read -4.77.

G284Q gave -5.28. For V285Q the result was -4.81. For V286Q the result was -5.20. I287Q read 1.42. With K288Q the assay gave -1.75. With N289Q the assay gave -4.55. G290Q gave -5.37.

With S291Q the assay gave 1.88. For Y292Q the result was -4.49. For V293Q the result was -4.58. With S294Q the assay gave -4.52. For A295Q the result was -4.88. With I296Q the assay gave -4.55. For T297Q the result was -4.41.

With G299Q the assay gave -4.93. For K300Q the result was -3.31. With R301Q the assay gave -5.55. E302Q gave 0.61. E303Q gave -1.10. E304Q gave -0.34. T305Q read 0.26.

P306Q gave -4.18. V307Q gave -0.81. With E308Q the assay gave 0.72.

2 of these entries, quoted again:

- G290Q -> -5.37
- I270Q -> -3.60

Values reported by Ni et al. 2025 (doi:10.1038/s41467-025-63602-z).